Data taken from PMC3458112.
For at least one entry, the source does not settle the construct or the ends of the probe. For part of these data: Tags and fusion partners may be left off the protein sequences shown.

By UniProt entry, the sequences of proteins in these tests, tags left out. Residues count along the entry.
UniProt Q96724, 748-1032: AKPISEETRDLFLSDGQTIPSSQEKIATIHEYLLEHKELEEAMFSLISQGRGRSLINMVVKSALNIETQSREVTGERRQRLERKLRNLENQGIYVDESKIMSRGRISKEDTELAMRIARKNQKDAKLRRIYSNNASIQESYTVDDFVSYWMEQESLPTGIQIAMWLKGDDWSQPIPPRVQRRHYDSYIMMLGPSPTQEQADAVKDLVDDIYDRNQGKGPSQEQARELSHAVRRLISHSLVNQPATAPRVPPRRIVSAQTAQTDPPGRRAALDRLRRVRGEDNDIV
UniProt P61825, 756-1012: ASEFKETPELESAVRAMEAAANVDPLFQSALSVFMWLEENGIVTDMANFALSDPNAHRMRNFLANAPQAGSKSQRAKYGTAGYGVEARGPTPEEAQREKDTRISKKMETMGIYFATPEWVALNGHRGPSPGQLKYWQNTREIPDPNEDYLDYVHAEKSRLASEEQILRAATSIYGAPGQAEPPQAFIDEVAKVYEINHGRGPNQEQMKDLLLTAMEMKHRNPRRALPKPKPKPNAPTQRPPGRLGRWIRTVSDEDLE

Tests used:
Test in all cases: EMSA
[1] = molecular target: DXV VP3 (Drosophila X virus) (UniProt Q96724); settings: VP3 70-1120 nM; 2-nt deoxy (dTdT) 3' overhangs; siRNA (2 nM): 10 mM Tris-HCl pH 8, 10 mM glycine, 2 mM DTT; genomic dsRNA (7.5 nM): 50 mM Tris-HCl pH 8, 150 mM NaCl, 0.5 ug/ul BSA; 30 min, room temperature, 20 ul; recombinant protein; protein details: 6xHis (pFastBacHtb); label: 32P 5' (T4 PNK)
[2] = molecular target: IBDV VP3 (Infectious bursal disease virus) (UniProt P61825); settings: VP3 80-1200 nM, RNA 2 nM; 2-nt deoxy (dTdT) 3' overhangs; siRNA (2 nM): 10 mM Tris-HCl pH 8, 10 mM glycine, 2 mM DTT; genomic dsRNA (7.5 nM): 50 mM Tris-HCl pH 8, 150 mM NaCl, 0.5 ug/ul BSA; 30 min, room temperature, 20 ul; recombinant protein; protein details: 6xHis (pFastBac-type); label: 32P 5' (T4 PNK)
[3] = molecular target: T1, IPNV VP3 (UniProt M9VR92); settings: VP3 80-1280 nM; 2-nt deoxy (dTdT) 3' overhangs; siRNA (2 nM): 10 mM Tris-HCl pH 8, 10 mM glycine, 2 mM DTT; genomic dsRNA (7.5 nM): 50 mM Tris-HCl pH 8, 150 mM NaCl, 0.5 ug/ul BSA; 30 min, room temperature, 20 ul; recombinant protein; protein details: 6xHis (pFastBacHtb); label: 32P 5' (T4 PNK)
T1 sequence (looked up, limits assumed): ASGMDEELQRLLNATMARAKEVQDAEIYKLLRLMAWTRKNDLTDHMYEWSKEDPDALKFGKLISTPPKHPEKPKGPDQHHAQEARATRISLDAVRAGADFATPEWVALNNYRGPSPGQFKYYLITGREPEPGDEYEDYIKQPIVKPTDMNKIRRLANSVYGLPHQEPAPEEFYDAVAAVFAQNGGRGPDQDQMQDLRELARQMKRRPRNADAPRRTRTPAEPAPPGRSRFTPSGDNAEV

Measured: binding result

CUUACGCGAGUCUUCGATT / UCGAAGUACUCAGCGUAAGTT [21-nt ds-siRNA]
binds: all assays above
